Data source: PubChem BioAssay AID504761 (Drosophila RNAi Screening Center, 2011)

Purpose: 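Insect host genes that dengue virus relies on to spread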 (primary screen)
Cells: D.Mel-2 cells from Drosophila
Reagent: long dsRNA against Drosophila genes
Treatment: infection with dengue virus type 2; dose and infection time not stated
Read-out: 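Cells stained for dengue envelope protein and imaged; percent of infected cells per well on duplicate plates, ranked by infection, with stained nuclei counted for cell number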
Direction: infection score: higher = more virus-infected cells; cell count: higher = more cells in the well
Hit rule: 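Low infection ranks in the two replicates (chance level up to 0.065) followed by a retest with a 1.5-fold or larger significant decrease, p below 0.05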
Meaning of the calls: active = confirmed: knock-down lowers infection; inactive = not picked or not confirmed
In all, the deposit lists about 22,000 reagents; below is a random part of those with a known target gene and a result. In the full data, 116 (0.52%) got an active call. 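Calls depend on retest data that are not deposited; infection was ranked per plate without normalising between plates; the unit of the infection score is not given.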 Raw values vary from plate to plate and are shown uncorrected. The numbers tell different reagents against one gene apart. Not all columns of the deposit are shown. No sequences are given here. Not given: the amount of reagent, the time to read-out.

For CG6923 (GeneID 41420) #1, the values are infection score, replicate 1 = 11.2; cell count, replicate 1 = 6515; inactive. CG6923 (GeneID 41420) #2 showed cell count, replicate 1 = 356; inactive. For CG4042 (GeneID 40291) #1, the entry reads infection score, replicate 1 = 7.04; cell count, replicate 1 = 6092; inactive. With knock-down of CG4042 (GeneID 40291) #2, the screen gave infection score, replicate 1 = 7.4; cell count, replicate 1 = 5052; inactive. Depletion of CG10089 (GeneID 39517) #1 gave: infection score, replicate 1 = 0.63; cell count, replicate 1 = 6680; inactive. For CG10089 (GeneID 39517) #2, the entry reads infection score, replicate 1 = 5.88; cell count, replicate 1 = 6238; inactive.

Khc-73 (GeneID 36718) #1 showed infection score, replicate 1 = 16.8; cell count, replicate 1 = 5311; inactive. Knock-down of Khc-73 (GeneID 36718) #2 came out at: infection score, replicate 1 = 12.3; cell count, replicate 1 = 6600; inactive. For CG34357 (GeneID 5740349) #1, the entry reads infection score, replicate 1 = 1.77; cell count, replicate 1 = 6663; inactive. Against CG34357 (GeneID 5740349) #2, the entry reads infection score, replicate 1 = 5.29; cell count, replicate 1 = 6461; inactive. After knock-down of CG34357 (GeneID 5740349) #3, the screen gave infection score, replicate 1 = 1.89; cell count, replicate 1 = 5879; inactive. Against CG34357 (GeneID 5740349) #4, the values are infection score, replicate 1 = 4.64; cell count, replicate 1 = 5738; inactive.

Against CG34357 (GeneID 5740349) #5 the deposit lists infection score, replicate 1 = 7; cell count, replicate 1 = 1514; inactive. Knock-down of Ctns (GeneID 42723) resulted in: infection score, replicate 1 = 11; cell count, replicate 1 = 5003; inactive. Against CG3511 (GeneID 37926) #1 the deposit lists infection score, replicate 1 = 21.4; cell count, replicate 1 = 6084; inactive. CG3511 (GeneID 37926) #2 showed infection score, replicate 1 = 5.51; cell count, replicate 1 = 5464; inactive.

Reprinted from above, 4 entries:
CG4042 (GeneID 40291) #1 | infection score, replicate 1: 7.04; cell count, replicate 1: 6092; call: inactive
CG4042 (GeneID 40291) #2 | infection score, replicate 1: 7.4; cell count, replicate 1: 5052; call: inactive
CG10089 (GeneID 39517) #1 | infection score, replicate 1: 0.63; cell count, replicate 1: 6680; call: inactive
CG10089 (GeneID 39517) #2 | infection score, replicate 1: 5.88; cell count, replicate 1: 6238; call: inactive

The listing continues.
With knock-down of Prosbeta2 (GeneID 39628) the results were infection score, replicate 1 = 0.19; cell count, replicate 1 = 517; inactive. Depletion of Hsl (GeneID 37289) resulted in: cell count, replicate 1 = 382; inactive. After knock-down of Cypl (GeneID 38069) #1 the results were infection score, replicate 1 = 3.34; cell count, replicate 1 = 5805; inactive. With knock-down of Cypl (GeneID 38069) #2, the record shows infection score, replicate 1 = 3.76; cell count, replicate 1 = 6140; inactive. Liprin-alpha (GeneID 249072) #1 scored infection score, replicate 1 = 0.97; cell count, replicate 1 = 926; inactive. Liprin-alpha (GeneID 249072) #2 gave infection score, replicate 1 = 19.7; cell count, replicate 1 = 6372; inactive.

Against Dus1 (GeneID 33190) the deposit lists infection score, replicate 1 = 3.52; cell count, replicate 1 = 6757; inactive. After knock-down of Exn (GeneID 39900) #1, the record shows infection score, replicate 1 = 5.32; cell count, replicate 1 = 5584; inactive. Exn (GeneID 39900) #2 gave infection score, replicate 1 = 4.76; cell count, replicate 1 = 6359; inactive. With knock-down of Exn (GeneID 39900) #3 the results were infection score, replicate 1 = 8.48; cell count, replicate 1 = 6194; inactive. Against Exn (GeneID 39900) #4 the deposit lists infection score, replicate 1 = 2.01; cell count, replicate 1 = 6672; inactive.
